Results of unrelated studies side by side (data: NIAID ChemDB).

Common to all: host cell toxicity; cells: KB; measure: CC50

Neighbouring rows are from separate reports. CCn: concentration that lowers growth or viability of the cells by n%.

compound	value
C[C@H]1c2ccoc2C[C@H]2[C@H]1[C@@H](O)[C@@H](OC(=O)/C=C/c1ccccc1)[C@@]1(O)C(C)(C)CCC[C@]21C	3.2 µg/mL
OCC1OC(n2c(SCc3ccccc3)nc3nc4cc(Cl)c(Cl)cc4nc32)C(O)C1O	20 µM
Nc1ncnc2c1ncn2[C@@H]1C[C@@H](O)[C@H](CO)O1	>100 µM
COC(=O)/C(C)=C/C=C/[C@@H](C)C1CC[C@@]2(C)[C@@H]3CC[C@H]4C(C)(C)C(=O)CC[C@]4(C)C3=CC[C@]12C	4.07 µM
Nc1ncnc2c1ncn2[C@@H]1C[C@@H](O)[C@H](CO)O1	>100 µM
Oc1c(Cl)c(Oc2cc(Cl)cc(Cl)c2)cc(Oc2ccc(Cl)cc2Cl)c1Cl	>20 µg/mL
OC[C@H]1O[C@@H](n2c(Cl)nc3nc4cc(Cl)c(Cl)cc4cc32)[C@H](O)[C@@H]1O	11 µM
OC[C@H]1O[C@@H](n2c(Br)nc(Cl)c2Cl)[C@H](O)[C@@H]1O	>100 µM
OC[C@H]1O[C@@H](n2c(Cl)nc3cc4cc(Cl)c(Cl)cc4nc32)[C@H](O)[C@@H]1O	8 µM
OC[C@H]1O[C@@H](n2c(Br)nc(Cl)c2Cl)[C@@H](O)[C@@H]1O	>100 µM
CC(C)Nc1nc2nc3cc(Cl)c(Cl)cc3nc2n1C1OC(CO)C(O)C1O	70 µM
CC(=O)Oc1c(-c2ccc(Cl)c(Cl)c2)oc2ccccc2c1=O	6.4 µM
[C-]#[N+][C@@]1(C)CC[C@H]2[C@H]3[C@@H](C(=C)CC[C@@H]31)[C@H](C=C(C)C)C[C@@H]2C	3.2 µg/mL
OC[C@H]1O[C@@H](n2c(SCc3ccccc3)nc3cc4cc(Cl)c(Cl)cc4cc32)[C@H](O)[C@@H]1O	>100 µM
CN1N=C(N)c2cn([C@@H]3O[C@H](COP(=O)(O)O)[C@@H](O)[C@H]3O)c3ncnc1c23	10 µM
OC[C@H]1O[C@@H](n2c(SCc3ccccc3)nc3cc4cc(Cl)c(Cl)cc4nc32)[C@H](O)[C@@H]1O	>100 µM
OC[C@H]1O[C@@H](n2c(Cl)nc(Cl)c2Cl)[C@H](O)[C@@H]1O	>100 µM
CC(=O)Oc1ccc(/C=C/C(=O)Oc2c(-c3ccc(Cl)cc3)oc3ccccc3c2=O)cc1OC(C)=O	57 µM
Oc1c(Cl)cc(Cl)cc1-c1c(Cl)cc(Cl)c(Oc2ccc(Cl)cc2Cl)c1O	2.3 µg/mL
OC[C@H]1O[C@@H](n2c(Br)nc(Br)c2Br)[C@H](O)[C@H]1O	>100 µM
OCC1OC(n2cnc3nc4cc(Cl)c(Cl)cc4nc32)C(O)C1O	>100 µM
OC[C@H]1O[C@@H](n2cnc3cc(Cl)c(Cl)cc32)[C@H](O)[C@@H]1O	36 µM
CCO/N=C/c1ccc(OCCC2CCN(c3ccc(C)nn3)CC2)cc1	4.706 µM
Nc1ccn([C@H]2CC[C@@H](CO)O2)c(=O)n1	100 µM
C/C(=C\C=C\[C@@H](C)[C@H]1CC[C@@]2(C)C3CC[C@H]4C(C)(C)C(=O)CC[C@]4(C)[C@@]3(O)[C@@H](O)C[C@]12C)C(=O)O	>40 µM
Nc1nc2c(ncn2[C@H]2C=C[C@@H](CO)O2)c(=O)[nH]1	>500 µM
OCC(CO)OCn1c(Br)nc(Br)c1Br	>100 µM
OC[C@H]1O[C@@H](n2cnc3cc(Cl)c(Cl)cc32)[C@H](O)[C@@H]1O	36 µM
COc1cc(C(=O)Oc2c(-c3ccc(Cl)cc3)oc3ccccc3c2=O)cc(OC)c1O	26 µM
OC[C@H]1O[C@@H](n2c(Br)nc(Br)c2Br)[C@H](O)[C@@H]1O	65 µM
C[C@]1(/C=C/Cl)C[C@](Cl)(CBr)[C@@H](Br)C[C@H]1Cl	13.3 µg/mL
O=P(O)(O)C(O)(Cc1ccccc1)P(=O)(O)O	931 µM
O=C(/C=C/c1ccc(O)c(O)c1)c1ccc(O)cc1	3.9 µM
C/C(=C\CC[C@@H](C)C1CC[C@@]2(C)[C@@H]3CC[C@H]4C(C)(C)C(=O)CC[C@]4(C)[C@@]3(O)CC[C@]12C)C(=O)O	>40 µM